Test results taken from paper PMC12663866, “Engineered Low‐Endotoxin Bacterial Biomimetic Vesicles for Enhanced Oral Dual‐Antigen Subunit Vaccine Delivery” (2025).

Biological target: ClyA‐SpG‐6×His displayed on the surface of CSS‐BBV (not stated | Streptococcus (species not stated))
Assay: ultrafiltration, free protein measured by A280

Substance: gD‐Fc (pseudorabies virus gD fused to the Fc fragment of porcine IgG1) (Fc fusion)
- maximum conjugation efficiency (percent of input bound): 69.9%
